Source: publication PMC8308777 (Pharmaceuticals, 2021)

Assay: general procedure: Fmoc solid-phase peptide synthesis; Fmoc-protected Rink amide MBHA polystyrene resin (0.71 mmol/g loading); HCTU/DIPEA
Details: whole synthesis; for final HPLC purity: Analytical HPLC, HPLC/MS; for isolated yield: overall

| Substance | final HPLC purity [%] | isolated yield [%] | also measured |
| --- | --- | --- | --- |
| Naphthyl-CH2-CO-NH-(CH2)2-O-(CH2)2-O-CH2-CO-NH-PKIIQSVGI-NH2 | 96 | 26 | isolated mass (scale 0.07 mmol): 22.4 mg |
| Acridine-CH2-CO-NH-(CH2)2-O-(CH2)2-O-CH2-CO-NH-PKIIQSVGI-NH2 | 98 | 10 | isolated mass (scale 0.06 mmol): 6.2 mg |
| Biphenyl-CH2-CO-NH-(CH2)2-O-(CH2)2-O-CH2-CO-NH-PKIIQSVGI-NH2 | 97 | 42 | isolated mass (scale 0.07 mmol): 107.7 mg |
| Ph-CH2-CO-NH-(CH2)2-CO-NH-PKIIQSVGI-NH2 | 97 | 27 | isolated mass (scale 0.11 mmol): 37 mg |
| (2-(2-oxobenzo[cd]indol-1(2H)-yl)-CH2-CO-NH-PKIIQSVGI-NH2 | 97 | 18 | isolated mass (scale 0.11 mmol): 18 mg |
| Ph-CH2-CO-NH-(CH2)2-O-CH2-CO-NH-PKIIQSVGI-NH2 | 87 | 25 | isolated mass (scale 0.12 mmol): 35 mg |
| Adamantyl-CH2-CO-NH-(CH2)2-O-(CH2)2-O-CH2-CO-NH-PKIIQSVGI-NH2 | 95 | 7 | isolated mass (scale 0.06 mmol): 4.7 mg |
| (Ph-CH2)2(Me)N^+-(CH2)2-O-(CH2)2-O-CH2-CO-NH-PKIIQSVGI-NH2 I^− | 98 | 8 | isolated mass (scale 0.073 mmol): 7.9 mg |
| CH3-CH2-CO-NH-(CH2)2-O-(CH2)2-O-CH2-CO-NH-PKIIQSVGI-NH2 | 98 | 12 | isolated mass (scale 0.07 mmol): 14.4 mg |
| Ph-CH2-CO-NH-PKIIQSVGI-NH2 | 92 | 7 | isolated mass (scale 0.09 mmol): 7.16 mg |
| (Ph-CH2)(Me)2N^+-(CH2)2-O-(CH2)2-O-CH2-CO-NH-PKIIQSVGI-NH2 I^− | 99 | 25 | isolated mass (scale 0.073 mmol): 22 mg |
| (Ph-CH2)2N-(CH2)2-O-(CH2)2-O-CH2-CO-NH-PKIIQSVGI-NH2 | 95 | – | isolated yield (run 1): 9%; isolated yield (run 2): 21%; isolated mass (scale 0.03 mmol): 3.2 mg; isolated mass (scale 0.073 mmol): 20 mg |
| Ph-CH2-NH-(CH2)2-O-(CH2)2-O-CH2-CO-NH-PKIIQSVGI-NH2 | 98 | 32 | isolated mass (scale 0.03 mmol): 10.4 mg |
| Ph-CH2-CO-NH-(CH2)2-O-(CH2)2-O-CH2-CO-NH-PKIIQSVGI-NH2 | 99 | 39 | isolated mass (scale 0.11 mmol): 156.0 mg |
